The text below walks through data of patent US20110189730 (published 2011).

The exact form of at least one protein or probe is not confirmed. Where a protein sequence is shown, tags need not be part of it.

The target of this series is T1, Sin Nombre hantavirus nucleocapsid protein (N) (Sin Nombre hantavirus) (UniProt Q89462).
T1 sequence (limits assumed): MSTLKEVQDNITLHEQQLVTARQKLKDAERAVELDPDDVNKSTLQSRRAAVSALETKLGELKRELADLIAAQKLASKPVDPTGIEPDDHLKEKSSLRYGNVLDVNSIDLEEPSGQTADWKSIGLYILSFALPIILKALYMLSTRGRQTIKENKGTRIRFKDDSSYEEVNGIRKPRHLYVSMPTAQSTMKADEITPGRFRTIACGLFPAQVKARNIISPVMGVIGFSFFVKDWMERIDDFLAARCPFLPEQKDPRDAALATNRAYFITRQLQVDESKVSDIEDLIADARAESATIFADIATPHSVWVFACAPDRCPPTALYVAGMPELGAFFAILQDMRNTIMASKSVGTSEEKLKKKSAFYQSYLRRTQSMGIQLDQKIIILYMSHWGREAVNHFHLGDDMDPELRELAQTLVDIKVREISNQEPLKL
In words: filter binding. The following applies: 5' m7G cap; purified recombinant protein; protein details: C-terminal octahistidine tag, expressed in E. coli; label: 32P-CTP; only the motif is given; variant of m7GUCUCC capped hexamer.

GUCUC [m7GUCUC capped pentamer]: the binding result is “binds”.
